Pooled drug test results. Numbers come from NIAID ChemDB, via PubChem.

Common to all: tests in culture; species: Aspergillus niger; method: agar; read-out: MIC

Lines come from different laboratories, so protocols vary. Blank or dashed fields: not listed here.

compound | strain | value
CCN1CCN(c2nc(Nc3ccc(C#N)c(C(F)(F)F)c3)nc(Oc3cccc4cccnc34)n2)CC1 | MTCC 282 | 50 µg/mL
O=C(CSc1nnc(-c2ccc3ncccc3c2)o1)Nc1ccc([N+](=O)[O-])cc1 | - | 50 µg/mL
COc1ccc(-c2cc(=S)ss2)cc1 | - | 100 µg/mL
CN1CCN(c2nc(Nc3ccc(C#N)c(C(F)(F)F)c3)nc(Oc3cccc4cccnc34)n2)CC1 | MTCC 282 | 100 µg/mL
O=C(CSc1nnc(-c2ccc3ncccc3c2)o1)Nc1nc2ccc(I)cc2s1 | - | 100 µg/mL
CCC(=O)N1CCC(n2cc(-c3nc(-c4ccc(C)cc4)n[nH]3)nn2)CC1 | - | >200 µg/mL
CC(=O)Nc1ccc2nc(NC(=O)CSc3nnc(-c4ccc5ncccc5c4)o3)sc2c1 | - | 12.5 µg/mL
CC(=O)N1CCC(n2cc(-c3nc(-c4ccc(Cl)cc4)n[nH]3)nn2)CC1 | - | 50 µg/mL
CC(=O)N1CCN(c2nc(Nc3ccc(C#N)c(C(F)(F)F)c3)nc(Oc3cccc4cccnc34)n2)CC1 | MTCC 282 | 12.5 µg/mL
CS(=O)(=O)N1CCC(n2cc(-c3nc(-c4ccc(Cl)cc4)n[nH]3)nn2)CC1 | - | 30 µg/mL
O=C(CSc1nnc(-c2ccc3ncccc3c2)o1)Nc1ccc(I)cc1 | - | 100 µg/mL
CS(=O)(=O)N1CCC(n2cc(-c3nc(-c4ccc([N+](=O)[O-])cc4)n[nH]3)nn2)CC1 | - | 30 µg/mL
N#Cc1ccc(NC(=O)CSc2nnc(-c3ccc4ncccc4c3)o2)cc1 | - | 50 µg/mL
N#Cc1ccc(Nc2nc(Oc3cccc4cccnc34)nc(N3CCN(c4cccc(Cl)c4)CC3)n2)cc1C(F)(F)F | MTCC 282 | 25 µg/mL
O=C(c1ccc(Cl)cc1)N1CCC(n2cc(-c3nc(-c4ccccc4)n[nH]3)nn2)CC1 | - | >200 µg/mL